Results of unrelated studies side by side (data: NIAID ChemDB).

All rows: tests in culture; agent: Hepatitis B virus; method: PCR; measure: EC50

a–b is a range or a potency band. Neighbouring rows are from separate reports. ECn: concentration that inhibits the pathogen or its effect by n%. An empty or dashed field is not shown.

O=C(NCc1ccccc1)c1c2n(c(=O)n1-c1ccc(N3CCC3=O)cc1)CCN(C(=O)c1ccc(Br)c(Cl)c1)C2 ; cells: HepG2.117 ; result: 0.5–5 µM
Cn1nc2cc(NS(=O)(=O)NCc3cccc(F)n3)ccc2c1C(=O)Nc1ccc(F)c(Cl)c1 ; cells: HepAD38 ; result: 100–1000 µM
COc1ccc(-n2c(C(=O)NCc3ccc(C#N)cc3)c3n(c2=O)CCN(C(=O)c2ccc(Br)c(Cl)c2)C3)cc1 ; cells: HepG2.117 ; result: 0.5–5 µM
Cc1c(C(=O)C(=O)NC(C)(C)c2nnco2)c(C)n(C)c1C(=O)Nc1ccc(F)c(C(F)(F)F)c1 ; cells: HepG2.2.15 ; result: 0.001–0.0099 µM
O=C(NCc1ccccc1-n1ccnc1)c1c2n(c(=O)n1-c1ccc(OCC(F)(F)F)cc1)CCN(C(=O)c1ccc(Br)c(Cl)c1)C2 ; cells: HepG2.117 ; result: 0.5–5 µM
C#CC(C)(CC)NC(=O)C(=O)c1c(C)c(C(=O)Nc2ccc(F)c(F)c2)n(C)c1C ; cells: HepG2.2.15 ; result: 0.001–0.0099 µM
CNC(=O)c1ccc(-n2c(=O)c3c(n4ncc(Cc5ccccc5)c24)CN(C(=O)c2ccc(Br)c(C#N)c2)CC3)cc1 ; setting: 3 d ; cells: HepG2.117 ; result: <0.1 µM
C#CC1(NC(=O)C(=O)c2c(C)c(C(=O)Nc3ccc(F)c(F)c3)n(C)c2C)CCCCC1 ; cells: HepG2.2.15 ; result: 0.001–0.0099 µM
CNS(=O)(=O)N1CCC[C@@H](NS(=O)(=O)c2cn(C)c(C(=O)Nc3cccc(C(F)(F)F)c3)c2F)C1 ; cells: HepAD38 cells ; result: <0.1 µM
CNC(=O)c1ccc(-n2c(=O)c3c(n4ncc(Cc5ccc(OC(F)(F)F)cc5)c24)CN(C(=O)c2ccc(Br)c(Cl)c2)CC3)cc1 ; setting: 3 d ; cells: HepG2.117 ; result: <0.1 µM
Cc1c(C(=O)C(=O)NC(C)(C)c2ncc[nH]2)c(C)n(C)c1C(=O)Nc1ccc(F)c(C#N)c1 ; cells: HepG2.2.15 ; result: 0.001–0.0099 µM
O=C(NCc1ccccc1)c1c2n(c(=O)n1-c1ccc(OC3CC3)cc1)CCN(C(=O)c1cc(Cl)c(Br)cc1F)C2 ; cells: HepG2.117 ; result: >0.5 µM
CNC(=O)c1ccc(-n2c(=O)c3c(n4ncc(NCc5ccccc5F)c24)CN(C(=O)c2ccc(Br)c(Cl)c2)CC3)cc1 ; setting: 3 d ; cells: HepG2.117 ; result: <0.1 µM
Cc1cc(NC(=O)c2c3c(cn2C)S(=O)(=O)N[C@H]2CN(C(=O)C(=O)NC4(C(F)(F)F)CCC4)C[C@H]2CO3)ccc1F ; cells: HepAD38 ; result: <0.5 µM
CNC(=O)C(=O)N1CC[C@@H](NS(=O)(=O)c2cn(C3CCCC3)c(C(=O)Nc3ccc(F)c(F)c3)c2F)C1 ; cells: HepAD38 cells ; result: 0.3–1 µM
Cc1cc(NC(=O)c2c3c(cn2C)S(=O)(=O)N[C@H]2CN(C(=O)C(=O)N[C@H](C)C(F)(F)F)C[C@H]2CO3)ccc1F ; strain or isolate: Genotype E ; cells: HepG2 ; result: 0.00179 µM
Cn1cc(S(=O)(=O)Nc2cc(F)c3c(C(=O)Nc4ccc(F)c(Cl)c4)n(C)nc3c2)cn1 ; cells: HepAD38 ; result: 100–1000 µM
Cc1cc(NC(=O)c2c3c(cn2C)S(=O)(=O)NC2CN(C(=O)C(=O)N4CC(F)(F)C4)CCC2CO3)ccc1F ; cells: HepAD38 ; result: <0.5 µM
C#CC1(NC(=O)C(=O)c2c(C)c(C(=O)Nc3ccc(F)c(C(F)(F)F)c3)n(C)c2C)COC1 ; cells: HepG2.2.15 ; result: <0.001 µM
Cn1nc2cc(NS(=O)(=O)C3CC(OCc4ccccc4)C3)ccc2c1C(=O)Nc1ccc(F)c(Cl)c1 ; cells: HepAD38 ; result: 100–1000 µM
O=C(NCc1ccccc1)c1cnn2c3c(c(=O)n(-c4ccccc4)c12)CCN(C(=O)c1ccc(Cl)c(Cl)c1)C3 ; setting: 3 d ; cells: HepG2.117 ; result: >5 µM
C#CCNC(=O)C(=O)c1c(C)c(C(=O)Nc2ccc(F)c(C#N)c2)n(C)c1Cl ; cells: HepG2.2.15 ; result: 0.001–0.0099 µM
O=C(c1ccc(Br)c(Cl)c1)N1CCc2c(n3nccc3n(Cc3ccccc3)c2=O)C1 ; setting: 3 d ; cells: HepG2.117 ; result: 0.5–5 µM
Cn1nc2cc(NS(=O)(=O)NCc3cccc(N)n3)ccc2c1C(=O)Nc1ccc(F)c(Cl)c1 ; cells: HepAD38 ; result: 100–1000 µM
C#CC(C)(C)NC(=O)C(=O)c1c(C)c(C(=O)Nc2ccc(F)c(C(F)(F)F)c2)n(C)c1C ; cells: HepG2.2.15 ; result: <0.001 µM
Cc1cc(NC(=O)c2c3c(cn2C)S(=O)(=O)N[C@H]2CN(C(=O)C(=O)N[C@@H](C)C(F)(F)F)C[C@H]2CO3)ccc1F ; cells: HepAD38 ; result: <0.5 µM
Cn1nc2ccc(NC(=O)OCc3ccc(F)cc3)cc2c1C(=O)Nc1ccc(F)c(Cl)c1 ; cells: HepAD38 ; result: >1000 µM
C[C@H](NC(=O)c1c2n(c(=O)n1-c1ccc(OC3CC3)cc1)C[C@H](C)N(C(=O)c1ccc(Br)c(Cl)c1)C2)c1ccccc1 ; cells: HepG2.117 ; result: 0.1–0.5 µM
C[C@@H](NS(=O)(=O)Nc1ccc2c(C(=O)Nc3ccc(F)c(Cl)c3)n(C)nc2c1)c1ccccc1 ; cells: HepAD38 ; result: 100–1000 µM
Cc1ccc(-n2c(C(=O)NCc3ccccc3)c3n(c2=O)CCN(C(=O)c2ccc(Cl)c(Cl)c2)C3)cc1 ; cells: HepG2.117 ; result: 0.5–5 µM
Cn1cc2c(c1C(=O)Nc1ccc(Cl)c(F)c1)OC[C@@H]1CN(C(=O)C(=O)NC3(C)COC3)C[C@@H]1NS2(=O)=O ; cells: HepG2 ; result: <0.5 µM
CCNC(=O)C(=O)N1CCC(NS(=O)(=O)c2cn(/C=C/F)c(C(=O)Nc3cc(F)cc(Cl)c3)c2F)CC1 ; cells: HepAD38 cells ; result: <0.1 µM
Cn1cc(NC(=O)CS(=O)(=O)Nc2ccc3c(C(=O)Nc4ccc(F)c(Cl)c4)n(C)nc3c2)cn1 ; cells: HepAD38 ; result: >1000 µM
CNC(=O)C(=O)N1CC[C@@H](NS(=O)(=O)c2c(F)c(C(=O)Nc3ccc(F)c(F)c3)n(C)c2C)C1 ; cells: HepAD38 cells ; result: <0.1 µM
C#C[C@@H](NC(=O)C(=O)c1c(C)c(C(=O)Nc2ccc(F)c(C#N)c2)n(C)c1C)C1COC1 ; cells: HepG2.2.15 ; result: 0.001–0.0099 µM
CC(C)Oc1ccc(-n2c(C(=O)N[C@@H](C)c3ccc(C#N)cc3)c3n(c2=O)CCN(C(=O)c2ccc(Br)c(Cl)c2)C3)cc1 ; cells: HepG2.117 ; result: 0.1–0.5 µM
Cn1nc2ccc(NC(=O)OCc3ccc(-c4ccccc4)cc3)cc2c1C(=O)Nc1ccc(F)c(Cl)c1 ; cells: HepAD38 ; result: >1000 µM
CC(C)c1cnn2c3c(c(=O)n(-c4ccccc4)c12)CCN(C(=O)c1ccc(Br)c(Cl)c1)C3 ; setting: 3 d ; cells: HepG2.117 ; result: 0.5–5 µM
CN(C)C(=O)C(=O)N1CC2COc3c(cn(C)c3C(=O)Nc3cc(F)c(F)c(F)c3)S(=O)(=O)NC2C1 ; cells: HepAD38 ; result: <0.5 µM

Repeating the first 4 entries:

structure	strain or isolate	setting	cells	result
O=C(NCc1ccccc1)c1c2n(c(=O)n1-c1ccc(N3CCC3=O)cc1)CCN(C(=O)c1ccc(Br)c(Cl)c1)C2			HepG2.117	0.5–5 µM
Cn1nc2cc(NS(=O)(=O)NCc3cccc(F)n3)ccc2c1C(=O)Nc1ccc(F)c(Cl)c1			HepAD38	100–1000 µM
COc1ccc(-n2c(C(=O)NCc3ccc(C#N)cc3)c3n(c2=O)CCN(C(=O)c2ccc(Br)c(Cl)c2)C3)cc1			HepG2.117	0.5–5 µM
Cc1c(C(=O)C(=O)NC(C)(C)c2nnco2)c(C)n(C)c1C(=O)Nc1ccc(F)c(C(F)(F)F)c1			HepG2.2.15	0.001–0.0099 µM